Data published in PMC8545924.

Target: BG505_(N611A) SOSIP Env trimer (HIV-1 (clade A, strain BG505))
Assay: mass photometry

B1: Ab1245 Fab (Fab, V domains shown)
VH: QVQLQQSGPGLVKPSETLSLTCTVSGGSISESYYWKWIRQPPGKGLEWVGRIYGSGVSTSYNPSLESRVTISKDTSKNHFSLKLTSVTAADTAVYYCARSYVRAETLMFASLGGPYNRFDVWGAGVLVTVSS
VL: QSALTQPSSASASLGASVTLTCTLSSGYSNSAVDWHQQRPGKGPQFVMRVGTGGIVGSKGDGIPDRFSGSGSGLNRYLIIKNIQEEDESDYHCGADHGTGSAFVYVFGGGTKLTVL
stoichiometry N (Fabs per trimer): 0
